Compound potency records, mixed from different reports. Data source: NIAID ChemDB in PubChem.

Common to all: tests in culture; species: Mycobacterium tuberculosis

Inhibition is in % at the dose shown (toxicity tests: loss of growth or viability). An empty or dashed field is not shown. A number after MIC or MFC names an inhibition level or a share of isolates. MIC bound comes from a single tested concentration. Two numbers with a dash give a range or band. Lines come from different laboratories, so protocols vary. ECn is the concentration giving n% inhibition of infection, replication or growth.

compound,conditions,strain,read-out,method,dose,result
CC(C)[C@](O)(C(=O)OCC1=CCN2CC[C@@H](O)[C@@H]12)[C@H](C)O,,H37Rv,inhibition,BACTEC,12.5 µg/mL,-4%
CC[C@@H](CO)NCCN[C@@H](CC)CO,,Isolate 2,MIC,,,8 µg/mL
C=CCn1c(-c2ccc(N=Nc3c(C)[nH]n(CCO)c3=O)cc2)n[nH]c1=S,,H37Rv,inhibition,,12.5 µg/mL,4%
CSC(=S)N/N=C(/C)Cc1ccccn1,,H37Rv,MIC bound,BACTEC,,≤128 µg/mL
CO[C@H]1/C=C/O[C@@]2(C)Oc3c(C)c(O)c4c(O)c(c5c(c4c3C2=O)NC2(CCNCC2)N=5)=NC(=O)/C(C)=C\C=C\[C@H](C)[C@H](O)[C@@H](C)[C@@H](O)[C@@H](C)[C@H](OC(C)=O)[C@@H]1C,,H37Rv,MIC,,,0.02 µg/mL
CCN1C(=O)N(C)C(O)c2c1nc1ccccn1c2=O,,H37Rv,inhibition,resazurin,6.25 µg/mL,-2%
C=CCN1[C@@H](c2ccccc2)CC2(C[C@H]1c1ccccc1)N=c1c(c3c4c5c(C)c(O)c3c(O)c1=NC(=O)/C(C)=C\C=C\[C@H](C)[C@H](O)[C@@H](C)[C@H](O)[C@H](C)[C@H](OC(C)=O)[C@H](C)[C@@H](OC)/C=C/O[C@@](C)(O5)C4=O)N2,,ATCC 35820 (streptomycin-resistant),MIC,,,0.02 µg/mL
c1ccc(CNc2nnc(CCON=C(c3ccccc3)c3ccccc3)o2)cc1,,,inhibition,,12.5 µg/mL,7–56%
C[C@]1(COc2ccc(N3CCC(Oc4ccc(OC(F)(F)F)cc4)CC3)cc2)Cn2cc([N+](=O)[O-])nc2O1,,H37Rv,MIC,,,0.012 µg/mL
C[C@@H]1CN(c2c(F)c(N)c3c(=O)c(C(=O)O)cn(C4CC4)c3c2F)C[C@H](C)N1,,Isolate 1,MIC,,,1 µg/mL
O=C(c1cn(-c2ccccc2)nn1)c1cccc2ccccc12,,H37Rv,inhibition,,12.5 µg/mL,83%
C/C(=N\OCCc1n[nH]c(=S)o1)c1ccccc1,,,inhibition,,12.5 µg/mL,7–56%
COc1cc(CNCCNC[C@]2(C)CCC[C@]3(C)c4ccc(C(C)C)cc4CC[C@@H]23)cc(OC)c1OC,,,MIC,,,50 µM
CC(=O)Nc1ccc(OCC(=O)NN2C(=O)CSC2c2ccccc2O)cc1,,H37Rv,inhibition,,12.5 µg/mL,0%
O=C(Oc1ccc(Cl)cc1C(=O)Nc1ccc(C(F)(F)F)cc1)c1cnccn1,21 d,multidrug resistant Praha 1,MIC,,,0.125 µM
CC1=CC(=O)N(NC(=O)c2ccc(-n3cccc3)cc2)C1=O,,H37Rv,MIC,resazurin,,0.8 µg/mL
Nc1nnc(CCON=C(c2ccccc2)c2ccccc2)o1,,,inhibition,,12.5 µg/mL,7–56%
C=CCn1c(-c2ccc(N=Nc3c(C)[nH][nH]c3=O)cc2)n[nH]c1=S,,H37Rv,EC50,,,>12.5 µg/mL
O=C(NN1C(=O)c2cccc([N+](=O)[O-])c2C1=O)c1ccc(-n2cccc2)cc1,,H37Rv,MIC,resazurin,,3.125 µg/mL
CCCCSc1nc(C(N)=S)cnc1CCC,,H37Rv,inhibition,,12.5 µg/mL,<90%
C=CCn1c(-c2ccc(OC)cc2)cs/c1=N\N=C1/C(=O)Nc2ccccc21,,H37Rv,EC50,,,<12 µg/mL
CN(C)CCCN1c2ccccc2Sc2ccc(Cl)cc21,,Isolate D (drug-resistant),MBC,,,30 µg/mL
Cc1[nH][nH]c(=O)c1N=Nc1ccc(-c2n[nH]c(=S)n2-c2ccccc2)cc1,,H37Rv,EC50,,,>12.5 µg/mL
O=C(Oc1ccc(Cl)cc1C(=O)Nc1cccc(F)c1)c1cnccn1,14 d,H37Rv 331/88,MIC,,,2 µM
C=CCNC(=S)N=Nc1c(O)[nH]c2ccccc12,,H37Rv,MIC,,,>12.5 µg/mL
O=C(NC(Cc1c[nH]c2ccccc12)C(=O)O)c1ccccc1,,H37Rv,MIC bound,BACTEC,,>12.5 µg/mL
CC1COc2c(N3CCN(C)CC3)c(F)cc3c(=O)c(C(=O)O)cn1c23,,07-9206,MIC,BACTEC,,0.5 µg/mL
NC(=O)c1cnccn1,,Isolate 11627 SM-resistant,MIC,,,>300 µg/mL
C=CCNc1nnc(CCON=C(c2ccccc2)c2ccccc2)o1,,,inhibition,,12.5 µg/mL,7–56%
CC(C)(C)c1ncc(C(N)=S)nc1Sc1ccccc1,,H37Rv,inhibition,,12.5 µg/mL,<90%
CC(=O)c1cn(O)nn1,,H37Rv,inhibition,,12.5 µg/mL,12%
N#Cc1snc2sc(=O)sc12,,H37Rv,MIC bound,BACTEC,,≤128 µg/mL
C1=C(CCNCCNCC2CCCO2)CCCC1,,,MIC,,,50 µM
CCSc1nc(C(N)=S)cnc1C(C)(C)C,,H37Rv,MIC,,,>12.5 µg/mL
CCN(CC)CCOC(=O)c1ccc(N=Nc2cc(Cl)c(C)cc2O)cc1,,H37Rv,MIC bound,BACTEC,,>12.5 µg/mL
Cc1[nH][nH]c(=O)c1N=Nc1ccc(-c2n[nH]c(=O)n2-c2ccccc2)cc1,,H37Rv,MIC,,,>12.5 µg/mL
CC(=O)Nc1ccc(OCC(=O)NN2C(=O)CSC2c2ccc(Cl)cc2Cl)cc1,,H37Rv,inhibition,,12.5 µg/mL,0%
C[C@H]1COc2c(N3CCN(C)CC3)c(F)cc3c(=O)c(C(=O)O)cn1c23,,T10904,MIC,,,0.5 µg/mL
CCn1c(-c2ccc(N=Nc3c(C)[nH][nH]c3=O)cc2)n[nH]c1=S,,H37Rv,EC50,,,>12.5 µg/mL
COc1ccc(C)cc1N=NC1C(=O)N(C(=O)CC(=O)Nc2cccc(C)c2)N=C1C,,H37Rv,inhibition,BACTEC,12.5 µg/mL,0%
COc1ccccc1CCNCCN[C@H]1C[C@H]2CC[C@]1(C)C2(C)C,,,MIC,,,50 µM
Cc1cc(C)c(C(=O)c2cn(-c3ccccc3)nn2)c(C)c1,,H37Rv,inhibition,,12.5 µg/mL,10%
CCCc1ncc(C(N)=O)nc1SC,,H37Rv,inhibition,,12.5 µg/mL,<90%
C[C@@H]1CN(c2c(F)c(N)c3c(=O)c(C(=O)O)cn(C4CC4)c3c2F)C[C@H](C)N1,,S-6M (susceptible),MIC,,,0.2 µg/mL
CN(C)C(=O)c1ccc(N=Nc2c(N)c(N=Nc3ccc(-c4ccc(N=Nc5ccc(O)c(C(=O)O)c5)cc4)cc3)cc(S(=O)(=O)O)c2N)cc1,,H37Rv,MIC bound,BACTEC,,>12.5 µg/mL
NC1[C@H]2CN(c3nc4c(cc3F)c(=O)c(C(=O)O)cn4-c3ccc(F)cc3F)C[C@@H]12,,206 isolates (susceptible),MIC90,,,64 µg/mL
CCCCN1C(=O)C(C)S/C1=N/N=C1\C(=O)Nc2ccc(Br)cc21,,H37Rv,inhibition,,12 µg/mL,18%
Cc1[nH][nH]c(=O)c1N=Nc1ccc(-c2n[nH]c(=S)o2)cc1,,H37Rv,MIC,,,>12.5 µg/mL
CO[C@H]1/C=C/O[C@@]2(C)Oc3c(C)c(O)c4c(O)c(c(/C=N/N5CCN(C)CC5)c(O)c4c3C2=O)NC(=O)/C(C)=C\C=C\[C@H](C)[C@H](O)[C@@H](C)[C@@H](O)[C@@H](C)[C@H](OC(C)=O)[C@@H]1C,,Isolate 4,MIC,,,>32 µg/mL
O=C(Oc1ccc(Cl)cc1C(=O)Nc1ccc(F)cc1)c1cnccn1,21 d,H37Rv 311/88,MIC,,,8 µM
C=CCN=C(N=Nc1c(O)[nH]c2ccc(Br)cc12)SCC(=O)c1ccc(Br)cc1,,H37Rv,inhibition,,12 µg/mL,98%
Cc1ccc2c(c1)C(=O)N(NC(=O)c1ccc(-n3cccc3)cc1)C2=O,,H37Rv,MIC,resazurin,,3.125 µg/mL
O=C(Nc1cccc2c1C(=O)c1cccc(Nc3cccc4c3C(=O)c3cccc(NC(=O)c5ccccc5)c3C4=O)c1C2=O)c1ccccc1,,H37Rv,inhibition,BACTEC,12.5 µg/mL,1%
CCCCc1ncc(C(N)=S)nc1SC,,H37Rv,MIC,,,>12.5 µg/mL
CC1=C(C(=O)NCc2ccccc2)C(c2cccc([N+](=O)[O-])c2)C(C(=O)NCc2ccccc2)=C(C)N1,,H37Rv,MIC bound,resazurin,,>6.25 µg/mL
O=[N+]([O-])c1cccc(-c2csc(-n3cccc3)n2)c1,,H37Rv,MIC,resazurin,,0.8 µg/mL
CC(C)(C)c1ncc(C(N)=O)nc1Sc1ccccc1,,H37Rv,MIC,,,>12.5 µg/mL
O=C(Oc1cc(Cl)ccc1C(=O)Nc1cccc(Br)c1)c1cnccn1,21 d,331/88,MIC,,,8 µM
COC1/C=C\C=C(/C)C(=O)Nc2cc3nc4ccc(Br)cc4oc-3c(c2=O)CC(C)CC(OC)C(O)C(C)/C=C(\C)C1OC(N)=O,,H37Rv,MIC,,,12.5 µg/mL
CCSc1nc(C(N)=O)cnc1C(C)(C)C,,H37Rv,inhibition,,12.5 µg/mL,<90%
COC1=C(NC(C)=O)C(=O)c2nc(-c3nc(C(=O)O)c(C)c(-c4ccc(OC)c(OC)c4O)c3N)ccc2C1=O,,H37Rv,MIC bound,BACTEC,,>12.5 µg/mL
CO[C@H]1/C=C/O[C@@]2(C)Oc3c(C)c(O)c4c(O)c(c5c(c4c3C2=O)NC2(CCN(CC(C)C)CC2)N=5)=NC(=O)/C(C)=C\C=C\[C@H](C)[C@H](O)[C@@H](C)[C@@H](O)[C@@H](C)[C@H](OC(C)=O)[C@@H]1C,,MDR-2037 (MDR),MIC,,,1.6 µg/mL
C[C@@]12C(=O)OC(=O)[C@]1(C)[C@H]1CC[C@@H]2O1,,H37Rv,MIC bound,BACTEC,,>12.5 µg/mL
O=C(c1cn(-c2ccccc2)nn1)c1ccco1,,H37Rv,inhibition,,12.5 µg/mL,42%
CO[C@H]1/C=C/O[C@@]2(C)Oc3c(C)c(O)c4c(O)c(c5c(c4c3C2=O)NC2(C[C@@H](c3ccccc3)N[C@@H](c3ccccc3)C2)N=5)=NC(=O)/C(C)=C\C=C\[C@H](C)[C@H](O)[C@@H](C)[C@H](O)[C@H](C)[C@H](OC(C)=O)[C@@H]1C,,ATCC 35822 (isoniazid-resistant),MIC,,,0.02 µg/mL
O=C(Oc1cc(Cl)ccc1C(=O)Nc1ccc(C(F)(F)F)cc1)c1cnccn1,21 d,extensively drug resistant Praha 131,MIC,,,0.125 µM
[CH3][Sn]([CH3])([Cl])[Br].c1cnc2c(c1)ccc1cccnc12,,H37Rv,MIC bound,BACTEC,,≤12.5 µg/mL
CCCc1ncc(C(N)=S)nc1SC,,H37Rv,inhibition,,12.5 µg/mL,<90%
CCC(/C(=N\NC(=O)C[N+](C)(C)C)c1ccccc1)C1OC(=O)c2ccccc21.[Cl-],,H37Rv,MIC bound,BACTEC,,>12.5 µg/mL
COc1ccc(-c2nnc(CCO/N=C(\C)c3ccccc3)o2)cc1,,,inhibition,,12.5 µg/mL,7–56%
CC(=O)Nc1ccc(OCC(=O)NN2C(=O)C(C)SC2c2cccc([N+](=O)[O-])c2)cc1,,H37Rv,inhibition,,12.5 µg/mL,27%
COc1ccc(OC)c(CNCCNC2C3CC4CC(C3)CC2C4)c1,,,MIC,,,12.5 µM
C[C@H]1COc2c(N3CCN(C)CC3)c(F)cc3c(=O)c(C(=O)O)cn1c23,,250 isolates,Mean MIC,,,0.579 µg/mL
COC(=O)C1(C)CC2C(C)(CCC3(C)C4=CC=C5C(=CC(=O)C(O)=C5C)C4(C)CCC23C)CC1O,,H37Rv,MIC bound,BACTEC,,≤12.5 µg/mL
CCOC(=O)/C(N=Nc1ccc(-c2n[nH]c(=S)n2CC)cc1)=C(\C)O,,H37Rv,EC50,,,>12.5 µg/mL
CC[C@]1(O)C[C@H]2CN(CCC3=C(NC4CC=CC=C34)[C@@](C(=O)OC)(c3cc4c(cc3OC)N(C)[C@H]3[C@@](O)(C(=O)NCCCCCCCCCCCC(=O)O)[C@H](O)[C@]5(CC)C=CCN6CC[C@]43[C@@H]65)C2)C1,,H37Rv,inhibition,BACTEC,12.5 µg/mL,4%
CC(C)N=c1cc2n(-c3ccc(Cl)cc3)c3ccccc3nc-2cc1Nc1ccc(Cl)cc1,multidrug-resistant,2230,MIC,,,2 µg/mL
O=C(N/C=C(\c1ccccc1)S(=O)Cc1ccccc1)Nc1ccccc1Cl,,H37Rv,MIC bound,BACTEC,,>12.5 µg/mL
CN[C@@H]1[C@H](O[C@H]2[C@H](O[C@H]3[C@H](O)[C@@H](O)[C@H](N=C(N)N)[C@@H](O)[C@@H]3N=C(N)N)O[C@@H](C)[C@]2(O)C=O)O[C@@H](CO)[C@H](O)[C@H]1O,,TN758 (P),MIC,,,>2 µg/mL
O=C1CNN=C(Cn2nc(-c3ccccc3)c3ccccc3c2=O)N1,,H37Rv,MIC bound,BACTEC,,>12.5 µg/mL
CC(=O)Nc1ccc(OCC(=O)NN2C(=O)CSC2c2ccc(O)cc2)cc1,,H37Rv,EC50,,,>12.5 µg/mL
CCCC12C=C(OC)C(=O)C=C1OC(c1cc(OC)c(OC)c(OC)c1)C2C,,H37Rv,MIC,BACTEC,,≥12.5 µg/mL
CCCCc1ncc(C(N)=O)nc1SCCC,,H37Rv,inhibition,,12.5 µg/mL,62%

Repeating the final 6 entries:

O=C(N/C=C(\c1ccccc1)S(=O)Cc1ccccc1)Nc1ccccc1Cl ; strain: H37Rv ; read-out: MIC bound ; method: BACTEC ; result: >12.5 µg/mL
CN[C@@H]1[C@H](O[C@H]2[C@H](O[C@H]3[C@H](O)[C@@H](O)[C@H](N=C(N)N)[C@@H](O)[C@@H]3N=C(N)N)O[C@@H](C)[C@]2(O)C=O)O[C@@H](CO)[C@H](O)[C@H]1O ; strain: TN758 (P) ; read-out: MIC ; result: >2 µg/mL
O=C1CNN=C(Cn2nc(-c3ccccc3)c3ccccc3c2=O)N1 ; strain: H37Rv ; read-out: MIC bound ; method: BACTEC ; result: >12.5 µg/mL
CC(=O)Nc1ccc(OCC(=O)NN2C(=O)CSC2c2ccc(O)cc2)cc1 ; strain: H37Rv ; read-out: EC50 ; result: >12.5 µg/mL
CCCC12C=C(OC)C(=O)C=C1OC(c1cc(OC)c(OC)c(OC)c1)C2C ; strain: H37Rv ; read-out: MIC ; method: BACTEC ; result: ≥12.5 µg/mL
CCCCc1ncc(C(N)=O)nc1SCCC ; strain: H37Rv ; read-out: inhibition ; dose: 12.5 µg/mL ; result: 62%